Patent US20240270826A1

Molecular target: SARS-CoV-2 S1-RBD (adsorbed in ELISA) (SARS-CoV-2 Wuhan)
Assay: ELISA, adsorbed antigen, ACE2-Fc titrated

With “ACE2-Fc (human ACE2 aa18-740 fused to human IgG1 Fc) (from UniProt Q9BYF1 18-740) (Fc fusion)” the EC50 was 0.32 nM.
